Values of other authors as cited in publication PMC2630844, “Characterizing the Anti-HIV Activity of Papuamide A” (Marine Drugs, 2008).
Read-outs that look alike come from different tables or passages of the source.

Tested on: HIV induced T cell death
Settings: HIV induced T cell death in vitro, cited from earlier work

Substance	selectivity index (SI)	selectivity index (SI) (SI as defined by paper: effective dose divided by the cytotoxic dose)
callipeltin A [reference compound]	29	
papuamide B	21	
neamphamide A [reference compound]		9.29
